Test results taken from patent US7439052B2, “Method of making modified immunodeficiency virus particles” (Lipid Sciences, priority 2000, dated 2008).

Legend:
Type in all cases: physicochemical
[1] = Isopycnic sucrose gradient and Western blot of delipidated HIV-1
[2] = Isopycnic density gradient of delipidated SIV-mac 251
Method: Virus density profiles were evaluated by subjecting them to isopycnic gradient centrifugation. Briefly, 1.3 ml each of 20%-60% sucrose in phosphate buffered saline (PBS) was overplayed, with 8% increments in sucrose concentrations. Six sucrose concentrations were layered, from 60% sucrose at the bottom, to 20% sucrose at the top. Virus samples (prepared after pelleting through a 20% sucrose cushion) in 750 μl PBS were carefully over-layed on top of the 20% sucrose. All tubes were spun in an 80Ti rotor for the Beckman L8 Ultracentrifuge at 40,000 rpm, and at 4° C. for 16 h. Starting from the top, 17 fractions of 525 μl per tube were collected. Virus concentrations were analyzed using a commercial SIV Gag p27 ELISA kit (Coulter, Calif.).
In FIG. 3, an isopycnic gradient analysis of delipidated HIV, indicated by a graphing of percent of total recovered p24 protein against fraction number, is shown. A substantial amount of the total recovered p24 protein for the samples subjected to delipidation processes is found at higher densities. […] That density shift is further shown in FIG. 4 where the isopycnic density of SIV-mac 251, indicated by a graphic of gag p27 concentration against fraction number, is depicted.

[3] = Cholesterol and protein levels in delipidated HIV; settings: for Protein / Chol.: HIV purified on 20% sucrose; for Chol.: Amplex Red assay; for % of Control: HIV, cholesterol relative to control; for Chol./protein: cholesterol to total protein ratio
Method: HIV was delipidated and purified on 20% sucrose. Cholesterol was measured with Amplex Red assay, a commercially available bioassay from vendors such as Molecular Probes, Inc., and total protein was measured.

[4] = Cholesterol and Gag p27 in delipidated SIV
Method: SIV was delipidated and purified on 20% sucrose. Cholesterol was measured with Amplex Red assay and Gag p27 protein measured. Data is expressed as cholesterol to Gag p27 protein ratio. DIPE treated virus had 80% less cholesterol than control, indicating effective delipidation. Similarly, relative to the control, the 1% DIPE sample has a decreased cholesterol to protein ratio. 1% DIPE treatment effectively removed 80% cholesterol while maintaining the structural integrity of the virus measured by the p27 recovery. […] This method was too harsh. […] Referring to FIGS. 5 and 6, FPLC profiles of fractionated SIV-mac251 are shown for Gag p27 and cholesterol.

Substance | Western blot (gp120, p24) of sucrose density fractions, density of viral particles [1] | isopycnic density relative to control (gag p27 against fraction number) [2] | Protein [3] [µg/mL] | Chol. [3] [µg/mL] | % of Control [3] [%] | Chol./protein [3] | outcome of delipidation treatment of SIV [4]
1% Butanol | shift of immunoreactive bands to higher density fractions | shift in density | 82.08 | 5.52 | 45.90 | 0.06 | not effective at delipidating the virus
2% Butanol | loss of many proteins, including a decrease in p24 protein and gp120 protein, and an increase in density of the viral particles |  | 80.53 | 5.14 | 43.54 | 0.06 | 
